Experimental data from PMC8228141, “Antiprotozoal Nor-Triterpene Alkaloids from Buxus sempervirens L” (Antibiotics, 2021).

Experiments:
[1] = system: Plasmodium falciparum (Pf) (intraerythrocytic forms, NF54 strain); experiment: In vitro antiplasmodial activity; format: cell-based; conditions: cytotoxicity L6 vs Pf
Experimental: (§1) After isolation, all alkaloids were tested in vitro for antiplasmodial and antitrypanosomal activity against Plasmodium falciparum (Pf) and Trypanosoma brucei rhodesiense (Tbr). Furthermore, to assess their selectivity against the parasites, cytotoxicity against L6 rat skeletal myoblasts, as mammalian control cells, was tested (Table 4).
In vitro assays for the bioactivity of the isolated Buxus-alkaloids against Tbr (bloodstream trypomastigotes, STIB 900 strain), Trypanosoma cruzi (Tc) (amastigotes, Tulahuen C4 strain), Leishmania donovani (Ldo) (amastigotes, MHOM-ET-67/L82 strain) and Pf (intraerythrocytic forms, NF54 strain), and cytotoxicity tests against mammalian cells (L6-cell line from rat-skeletal myoblasts), were performed at the Swiss Tropical and Public Health Institute (Swiss TPH, Basel, Switzerland) according to established standard protocols.

[2] = system: Trypanosoma brucei rhodesiense (Tbr) (bloodstream trypomastigotes, STIB 900 strain); experiment: In vitro antitrypanosomal activity; format: cell-based; conditions: cytotoxicity L6 vs Tbr
Experimental: as §1
In vitro assays for the bioactivity of the isolated Buxus-alkaloids against Tbr (bloodstream trypomastigotes, STIB 900 strain), Trypanosoma cruzi (Tc) (amastigotes, Tulahuen C4 strain), Leishmania donovani (Ldo) (amastigotes, MHOM-ET-67/L82 strain) and Pf (intraerythrocytic forms, NF54 strain), and cytotoxicity tests against mammalian cells (L6-cell line from rat-skeletal myoblasts), were performed at the Swiss Tropical and Public Health Institute (Swiss TPH, Basel, Switzerland) according to established standard protocols. […] Such a pattern of activity was also observed in other studies.

Compound | SI Pf (selectivity index) [1] | SI Tbr (selectivity index) [2]
CN[C@@H](C)[C@H]1[C@H](O)C[C@@]2(C)[C@@H]3C=C[C@H]4C(C)(C)[C@@H](N(C)C)CC[C@@]45C[C@@]35CC[C@]12C [Compound 2, Cyclovirobuxeine-B] | 14 | 25
CC(C1C(O)CC2(C)C3C=CC4C(C)(CO)C(N(C)C)CCC45CC35CCC12C)N(C)C (stereo not shown) [Compound 5, Cyclomicrophylline-A] | 56 | 42
CC(C1C(OC(=O)c2ccccc2)CC2(C)C3C=CC4C(C)(CO)C(N(C)C)CCC45CC35CCC12C)N(C)C (stereo not shown) [Compound 6, Cyclomicrophyllidine-A] | 23 | 14
CC(=O)OC[C@]1(C)[C@@H](NC(=O)c2ccccc2)CC[C@]23C[C@]24C(=O)C[C@]2(C)[C@@H]([C@H](C)N(C)C)CC[C@@]2(C)[C@@H]4CC[C@@H]13 [Compound 9, N-benzoyl-O-acetyl-cycloxo-buxoline-F] | 19 | 30
C[C@@H]([C@H]1[C@H](O)C[C@@]2(C)[C@@H]3CC[C@H]4C(C)(C)C(=O)C=C[C@@]45C[C@@]35CC[C@]12C)N(C)C [Compound 12, Nb-dimethylcycloxobuxoviricine] | 14 | 8
C=C1[C@@H](N(C)C)CC[C@]23C[C@]24CC[C@]2(C)[C@@H](C(C)=O)[C@H](O)C[C@@]2(C)[C@@H]4CC[C@@H]13 [Compound 18, Cyclomicrobuxine] | 10 | 2
C[C@@H]([C@H]1CC[C@H]2[C@@H]3CC=C4C[C@@H](O)CC[C@]4(C)[C@H]3CC[C@]12C)N(C)C [Compound 19, Irehine] | 10 | 6
CC(=O)[C@H]1[C@H](O)C[C@@]2(C)[C@@H]3CC[C@@H]4C(=CC3=CC[C@]12C)CC[C@H](N(C)C)C4(C)C [Compound 20, 16-α-hydroxybuxaminone] | 28 | 9
CC(=O)N[C@@H](C)[C@H]1CC[C@@]2(C)[C@@H]3CC[C@@H]4C(=CC3=CC[C@]12C)CC[C@H](N(C)C)C4(C)C [Compound 21, N20-acetylbuxamine-E] | 18 | 1
CC(=O)O[C@@H]1C[C@@]2(C)[C@@H]3CC[C@@H]4C(=CC3=CC[C@]2(C)[C@H]1[C@H](C)NC(=O)c1ccccc1)CC[C@H](N(C)C)C4(C)C [Compound 22, N-benzoyl-O-acetylbuxodienine-E] | 3 | 3
O-tigloylcyclovirobuxeine-B [Compound 1] | 18 | 6
